Compound potency records, mixed from different reports. Data source: NIAID ChemDB in PubChem.

Common to all: whole-cell or culture tests; species: Mycobacterium tuberculosis

Conditions beyond the fields shown may differ between rows. MIC bound comes from a single tested concentration. A number after MIC or MFC names an inhibition level or a share of isolates. a–b is a range or a potency band. Percent inhibition refers to the dose given; in toxicity tests it is the harm to the cells. An empty or dashed field is not shown. ECn: concentration that inhibits the pathogen or its effect by n%.

smiles	strain	cell line	method	conditions	measure	dose	value
CCCCCCCCOc1ccc(NC(=O)OCC[NH+]2CCCC2)cc1	My 331/88				MIC		32 µM
O=C(N/N=C/c1ccc[nH]1)c1ccc(F)cc1	H37Rv				EC50		>6.25 µg/mL
C/C=C1/C(=O)O[C@]23C=C[C@@H]4C(C(=O)OC)=CO[C@H](O[C@@H]12)[C@@H]43	H37Rv		MTT		MBC		3.6 µg/mL
O=c1[nH]nc(-c2ccccc2)c(-c2ccccc2)c1-n1nc(-c2ccccc2)c2ccccc2c1=O	H37Rv		BACTEC		MIC bound		>12.5 µg/mL
CC[C@@H](CO)NCCN[C@@H](CC)CO	Isolate 9				MIC		16 µg/mL
COc1cc2oc(-c3ccc(O)cc3)c(OC3OC(C)C(O)C(O)C3O)c(=O)c2c(O)c1OC	H37Rv		BACTEC		MIC bound		>12.8 µg/mL
CN[C@@H]1[C@H](O[C@H]2[C@H](O[C@H]3[C@H](O)[C@@H](O)[C@H](N=C(N)N)[C@@H](O)[C@@H]3N=C(N)N)O[C@@H](C)[C@]2(O)C=O)O[C@@H](CO)[C@H](O)[C@H]1O	9127				MIC		≥2 µg/mL
C[C@@H]1CN(c2c(F)c(N)c3c(=O)c(C(=O)O)cn(C4CC4)c3c2F)C[C@H](C)N1	Erdman				MIC		0.125 µg/mL
O=C(CCSC(=S)Nc1ccc(Cl)cc1)NNc1ccccc1	H37Rv		BACTEC		MIC bound		≤128 µg/mL
O=C(NNC(=O)C(Cl)Cl)c1ccccc1					MIC		>200 µg/mL
CO[C@H]1/C=C/O[C@@]2(C)Oc3c(C)c(O)c4c(=O)c(c5oc6cc(N7CCN(C(C)C)CC7)cc(=O)c6nc5c4c3=C2O)NC(=O)/C(C)=C\C=C\[C@H](C)[C@H](O)[C@@H](C)[C@@H](O)[C@@H](C)[C@H](OC(C)=O)[C@@H]1C	2847 (rifampin-sensitive)				MBC		0.2 µg/mL
CCCOc1ccccc1NC(=O)OCCN(C)C	My 331/88				MIC		500 µM
NC(=O)C(CO)NC(=O)c1ccc[n+](Cc2ccccc2)c1.[I-]	H37Rv		BACTEC		MIC		≥12.5 µg/mL
COc1ccc2oc(=O)n(-c3ccccc3)c(=S)c2c1	My 331/88			21 d	MIC		32 µM
Cc1ccc(NC(=O)CC/C(CC(=O)C(C)(C)C)=N\NC(=O)c2cc3ccccc3cc2O)cc1C	H37Rv		BACTEC		inhibition	12.5 µg/mL	6%
O=C(N/N=C/Cc1ccccc1)c1ccc(F)cc1	H37Rv				MIC		>6.25 µg/mL
O=c1oc2ccc(Br)cc2c(=S)n1-c1ccc(Br)cc1	My 331/88			14 d	MIC		1 µM
O=C(NOC(=O)c1ccccc1)c1ccccc1					MIC		>200 µg/mL
CCOc1c(N=Nc2ccccc2)c(C)nn1C(=S)S	H37Rv		BACTEC		inhibition	12.5 µg/mL	4%
CC1CN(c2cc3c(cc2F)c(=O)c(C(=O)O)cn3-c2ccc(F)cc2F)CCN1	MDR				MIC90		>8 µg/mL
O=c1oc2ccc(Cl)cc2c(=S)n1-c1ccc(F)cc1	My 331/88			21 d	MIC		4 µM
CO[C@H]1/C=C/O[C@@]2(C)Oc3c(C)c(O)c4c(O)c(c(/C=N/N5CCN(C/C=C/c6ccccc6)CC5)c(O)c4c3C2=O)NC(=O)/C(C)=C\C=C\[C@H](C)[C@H](O)[C@@H](C)[C@@H](O)[C@@H](C)[C@H](OC(C)=O)[C@@H]1C	2230 (rifampin-resistant)				MBC		0.8 µg/mL
COc1cc(/C=N/NC(=O)c2ccc(F)cc2)ccc1O	H37Rv				inhibition	6.25 µg/mL	3%
Cc1cc(N=Nc2cc(C)c(NC(=O)c3ccc(NC(=O)c4ccc(N)cc4)cc3)cc2C)ccc1N=Nc1ccc2cc(S(=O)(=O)O)cc(S(=O)(=O)O)c2c1	H37Rv		BACTEC		MIC		≥12.5 µg/mL
CCCCCCCCOc1ccccc1NC(=O)OCCN(C)C	My 331/88				MIC		8 µM
CC1CN(c2c(F)cc3c(=O)c(C(=O)O)cn(C4CC4)c3c2F)CC(C)N1	CSU20				MIC		0.25 µg/mL
C=CCn1c(-c2cc3ccccc3oc2=O)cs/c1=N\N=C\c1cc(Br)ccc1O	H37Rv				MIC		>12.5 µg/mL
C[C@@H]1CN(c2c(F)c(N)c3c(=O)c(C(=O)O)cn(C4CC4)c3c2F)C[C@H](C)N1	ATCC 35823				MIC		0.03 µg/mL
O=c1oc2ccc(F)cc2c(=S)n1-c1ccccc1	My 331/88			14 d	MIC		2 µM
CCCCCCOc1cccc(NC(=O)OCCN2CCOCC2)c1	My 331/88				MIC		16 µM
O=C(CCC(=O)c1ccc(Cl)cc1)NC[C@H]1CN(c2ccc(-n3cncn3)c(F)c2)C(=O)O1	ATCC 27294				MIC		4 µg/mL
c1ccc(C2N=NC(c3ccccc3)O2)cc1					MIC		200 µg/mL
O=C(O)c1cn(C2CC2)c2c(F)c(N3CCSCC3)c(F)cc2c1=O	CSU25				MIC		0.5 µg/mL
Cc1ccc(C)c2sc3cc(=O)ccc-3nc12	H37Rv		BACTEC		inhibition	12.5 µg/mL	98%
O=C(O)c1cnccn1	M6733				MIC		240 µg/mL
O=C(N/N=C/c1ccccc1O)c1ccccc1					MIC		10 µg/mL
NC[C@H]1O[C@H](O[C@H]2[C@H](O)[C@@H](O[C@H]3O[C@H](CO)[C@@H](O)[C@H](N)[C@H]3O)[C@H](N)C[C@@H]2N)[C@H](O)[C@@H](O)[C@@H]1O	Isolate 7				MIC		>128 µg/mL
O=c1oc2ccc(F)cc2c(=S)n1-c1ccc(Cl)cc1	My 331/88			14 d	MIC		1 µM
O=c1oc2ccc(Br)cc2cc1-c1cs/c(=N/N=C/c2ccc(Cl)cc2)n1C1CCCCC1	H37Rv				MIC		>12.5 µg/mL
COC(=O)c1cc(=O)nc2n1[C@H]1O[C@@H](CO)[C@H](O)[C@@H]1O2	H37Rv		resazurin		MIC bound		>6.25 µg/mL
CO[C@H]1/C=C/O[C@@]2(C)Oc3c(C)c(O)c4c(O)c(c(/C=N/N5CCN(C)CC5)c(O)c4c3C2=O)NC(=O)/C(C)=C\C=C\[C@H](C)[C@H](O)[C@@H](C)[C@@H](O)[C@@H](C)[C@H](OC(C)=O)[C@@H]1C	Isolate 10				MIC		>32 µg/mL
CCCCCCCOc1ccc(NC(=O)OCCN(C)C)cc1	My 331/88				MIC		8 µM
NNC(=O)c1ccncc1	PR492				MIC		0.31 µg/mL
CCCCCCCCOc1cccc(NC(=O)OCCN(C)C)c1	My 331/88				MIC		4 µM
CC/C(=C(\c1ccccc1)c1ccc(OCCN(C)C)cc1)c1ccccc1	MDR		resazurin		MIC		6.25–12.5 µg/mL
CCCCCCCCCOc1ccccc1NC(=O)OCCN(C)C	My 331/88				MIC		8 µM
CC[C@H]1OC(=O)[C@H](C)[C@@H](O[C@H]2C[C@@](C)(OC)[C@@H](O)[C@H](C)O2)[C@H](C)[C@@H](O[C@@H]2O[C@H](C)C[C@H](N(C)C)[C@H]2O)[C@](C)(O)C[C@@H](C)CN(C)[C@H](C)[C@@H](O)[C@]1(C)O	ATCC 35823				MBC		>8 µg/mL
C[C@H]1COc2c(N3CCN(C)CC3)c(F)cc3c(=O)c(C(=O)O)cn1c23	Strain 361				MIC		0.5 µg/mL
CC1COc2c(N3CCN(C)CC3)c(F)cc3c(=O)c(C(=O)O)cn1c23	001-012 (drug-resistant)				MBC		2 µg/mL
NNC(=O)c1ccncc1	101596				MIC		≥0.2 µg/mL
COc1cc(O)c2c(c1)C(=O)C1=C(C2=O)C(C)OC(C)C1	H37Rv		BACTEC		inhibition	12.5 µg/mL	-1%
O=C(CCC(=O)c1ccc(F)cc1F)NC[C@H]1CN(c2ccc(N3CCOCC3)c(F)c2)C(=O)O1	ATCC 27294				MIC		4 µg/mL
C[C@H]1C[C@H](N)CN1c1cc2c(cc1F)c(=O)c(C(=O)O)cn2-c1ccc(F)cc1F	ATCC35838				MIC		2 µg/mL
CCN(CC)CCC(=O)OC1/C(C)=C/C(C)C(=O)CC(C(C)CC2CCC(O)C(OC)C2)OC(=O)C2CCCCN2C(=O)C(=O)[C@@]2(O)OC(CCC2C)CC(OC)\C(C)=C/C=C/C=C/C(C)CC(C)C(=O)C1OC	H37Rv		BACTEC		MIC bound		>12.5 µg/mL
C[C@H]1COc2c(N3CCN(C)CC3)c(F)cc3c(=O)c(C(=O)O)cn1c23	CSU27				MIC		≤0.125 µg/mL
C=CCn1c(-c2cc3cc(Br)ccc3oc2=O)cs/c1=N\N=C\c1cc(Br)ccc1O	H37Rv				inhibition	12.5 µg/mL	91%
Cc1ccc(N=C=S)cc1Cl	H37Rv		BACTEC		inhibition	12.5 µg/mL	63%
O=C(N/N=C/c1ccc([N+](=O)[O-])cc1[N+](=O)[O-])c1ccc(F)cc1	H37Rv				EC50		>6.25 µg/mL
CO[C@H]1/C=C/O[C@@]2(C)Oc3c(C)c(O)c4c(=O)c(c5oc6cc(N7CCN(CC(C)C)CC7)cc(=O)c6nc5c4c3=C2O)NC(=O)/C(C)=C\C=C\[C@H](C)[C@H](O)[C@@H](C)[C@@H](O)[C@@H](C)[C@H](OC(C)=O)[C@@H]1C	H37Rv			inside macrophages	inhibition	5 µg/mL	97.3%
CC(=O)C(NC(=O)C(C)C(O)C(C)NC(=O)C(NC(=O)c1nc(C(CC(N)=O)NCC(N)C(N)=O)nc(N)c1C)C(OC1OC(CO)C(O)C(O)C1(C)OC1OC(CO)C(O)C(O)(C(N)=O)C1O)c1cnc[nH]1)C(=O)NCCC1=NC(c2nc(C(N)=O)cs2)CS1	PAS-R				MIC		0.006 µg/mL
CO[C@H]1/C=C/O[C@@]2(C)Oc3c(C)c(O)c4c(=O)c(c5oc6cc(N7CCN(CC(C)C)CC7)cc(=O)c6nc5c4c3=C2O)NC(=O)/C(C)=C\C=C\[C@H](C)[C@H](O)[C@@H](C)[C@@H](O)[C@@H](C)[C@H](OC(C)=O)[C@@H]1C	37 (rifampicin-resistant)				MIC		0.5 µg/mL
O=C(/C=C/C(=O)c1ccccc1)NC[C@H]1CN(c2ccc(N3CCOCC3)c(F)c2)C(=O)O1	ATCC 27294				MIC		>16 µg/mL
Cc1ccc(NC(=S)SCc2ccc(Cl)c(Cl)c2)cc1Cl	H37Rv		BACTEC		MIC		>12.5 µg/mL
CSc1ccc(C(=O)CCC(=O)NC[C@H]2CN(c3ccc(N4CCCC4)c(F)c3)C(=O)O2)cc1	10 clinical isolates sensitive				MIC		>16 µg/mL
N=c1scc(-c2ccccc2)n1/N=C/c1cccnc1	H37Rv		BACTEC		inhibition	6.25 µg/mL	99%
S=c1oc2ccc(Br)cc2c(=S)n1-c1ccc(Cl)c(Cl)c1	My 331/88			14 d	MIC		2 µM
CCS(=O)(=O)O.Cc1ccc(S(=O)(=O)F)cc1NC(=O)CCc1ccc(N2C(N)=NC(N)=NC2(C)C)cc1Cl	H37Rv		BACTEC		inhibition	12.5 µg/mL	0%
S=c1nn[nH]n1-c1ccccc1					MIC		200 µg/mL
CC(=O)OCC1OC(OC(C)=O)C(NC(=O)CNC(=O)OCc2ccccc2)C(OC(C)=O)C1OC(C)=O	H37Rv		BACTEC		inhibition	12.5 µg/mL	-20%
CCCCCCCCCCOc1ccc(NC(=O)OCCN2CCOCC2)cc1	My 331/88				MIC		16 µM
COc1ccc(Nc2cc(=O)[nH]c(N)n2)cc1	H37Rv		BACTEC		MIC bound		>12.5 µg/mL
Cc1ccc(-n2c(=O)oc3ccc(Br)cc3c2=S)cc1	My 331/88			21 d	MIC		1 µM
O=C1CN(c2ccccc2)C(=O)CN1/N=C/c1ccco1	H37Rv		BACTEC		MIC bound		>12.5 µg/mL
CC(=O)NC[C@H]1CN(c2ccc(N3CCOCC3)c(F)c2)C(=O)O1	Strain 370				MIC		0.25 µg/mL
CSC(=S)N/N=C(\C)c1ccc[nH]1	H37Rv	VERO	BACTEC		MIC		3.13 µg/mL
CCOc1cc(/C=N/N=c2\scc(-c3cc4cc(Br)ccc4oc3=O)n2C2CCCCC2)ccc1O	H37Rv				EC50		<12.5 µg/mL